system: HIV-1 with WT (wild type) RT in P4 cells; assay: Anti-HIV assay on P4 cell line, WT RT; assay type: cell-based

SMILES | SI (selectivity index = CC50/EC50)
CCc1c(C)[nH]c(=O)c(CSCCOC(=O)CCl)c1OC1CC(C)CC(C)C1 (centres unmarked) [Z122] | 27500
CCOC(=O)c1c(OC2CCCCCCC2)c(CC)c(C)[nH]c1=O [Z54] | 43
CCOC(=O)c1c(OC2CC(C)CC(C)C2)c(CC)c(C)[nH]c1=O (single isomer, unassigned) [Z37A] | 263
CCc1c(C)[nH]c(=O)c(CSC(C)=O)c1OC1CC(C)CC(C)C1 (centres unmarked) [Z114] | 1143
CCOC(=O)c1c(OC2CCCC(C)C2)c(CC)c(C)[nH]c1=O (centres unmarked) [Z30] | >192
CCc1c(C)[nH]c(=O)c(CO)c1OC1CC(C)CC(C)C1 (centres unmarked) [Z45inv] | 3304
CCc1c(C)[nH]c(=O)c(C)c1OC1CC(C)CC(C)C1 (centres unmarked) [Z154] | >80000
CCc1c(C)[nH]c(=O)c(CN=[N+]=[N-])c1OC1CC(C)CC(C)C1 (centres unmarked) [Z153] | >54000
CCOC(=O)c1c(OC2CC(C)CC(C)C2)c(CC)c(C)[nH]c1=O (single isomer, unassigned) [Z37inv] | 1778
CCOC(=O)c1c(OC2CCCCC2Cl)c(CC)c(C)[nH]c1=O (centres unmarked) [Z12] | >32
CCOC(=O)c1c(OC2CCCCCC2)c(CC)c(C)[nH]c1=O [Z25] | 168

From patent US20070275953A1 (priority 2003, published 2007)
